Data taken from PubChem BioAssay AID1822 (The Scripps Research Institute Molecular Screening Center, 2009).
Several values for one entry are separate records, joined by “and”; a condition that tells them apart may be missing. Equal values may be shown once. The list shows a part of the results, in another mix than the full data. Activity calls are given as the source filed them.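 How the source made its calls: active means inhibition above the campaign mean inhibition over all tested compounds plus 3 SD (cut at about 28% in these data); inactive means the rest.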

The compounds below were run on M18 aspartyl aminopeptidase (Plasmodium falciparum 3D7) (assay: inhibition of P. falciparum M18 aminopeptidase – biochemical, QFRET, recombinant enzyme, primary screen (AID 1822;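 further: 0% = plate median of test compound wells and 100% = 2 mM ZnCl2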)). Conditions: recombinant PfM18AAP, H-Glu-NHMec fluorogenic cleavage; at 7.35 µM; hits give high values.

| SMILES | inhibition |
| --- | --- |
| O=C(NC1CCS(=O)(=O)C1)NP(=S)(Oc1ccccc1)Oc1ccccc1 (centres undefined) | inactive: 2.22% |
| CCNC(=S)/N=C(\N)N[N+](=O)[O-] | inactive: 3.27% |
| c1ccc(-c2nn[nH]n2)c(-c2nn[nH]n2)c1 | inactive: 8.74% |
| CCOC(=O)NC(Sc1ccccc1)C(Cl)(Cl)Cl (centres undefined) | inactive: -7.64% |
| Cc1ccc(NP(=O)(Oc2cccc(C)c2)Oc2cccc(C)c2)nc1 | inactive: -8.66% |
| Cc1ccccc1OP(=O)(Nc1ccccn1)Oc1ccccc1C | inactive: 1.8% |
| CN(C)C(=O)Oc1noc2ccccc12 | inactive: 2.21% |
| O=c1c2cc([N+](=O)[O-])ccc2[nH]c2c([N+](=O)[O-])cc([N+](=O)[O-])cc12 | inactive: 0.51% |
| COC(=O)c1cc2c(s1)N=C(c1ccccc1)N(C)P2(=O)N1CCOCC1 (centres undefined) | inactive: 5.33% |
| Cc1ccc(OP(=O)(Nc2ccccn2)Oc2ccc(C)cc2)cc1 | inactive: -9.05% |
| CC(=O)NC(SC(=S)N(CC(C)C)CC(C)C)C(Cl)(Cl)Cl (centres undefined) | inactive: 14.2% |
| O=C(OC1CN2CCC1CC2)c1ccccc1 (centres undefined) | inactive: 3.15% |
| CCC(=O)N1C2C3N(C(=O)CC)C1C1N(C(=O)CC)C(C(N1C(=O)CC)N3C(=O)CC)N2C(=O)CC | inactive: -1.15% |
| CC(C)(C)C(=O)NC(Sc1ccccc1)C(Cl)(Cl)Cl (centres undefined) | inactive: -8.86% |
| O=P1(Nc2nc3ccc(Cl)cc3s2)COc2ccccc2O1 (centres undefined) | inactive: -8.8% |
| CCOc1ccc(C2=NCC(CBr)S2)cc1 (centres undefined) | inactive: -4.84% |
| CC(=O)Nc1ccc([As](=O)(O)O)c(O)c1 | inactive: -11.8% |
| CC(=O)Nc1ccc(Oc2c([N+](=O)[O-])cc([N+](=O)[O-])cc2[N+](=O)[O-])cc1 | inactive: 1.92% |
| CC(=O)c1ccc(N2CC2c2ccncc2)cc1 (centres undefined) | inactive: -7.18% |
| c1nnnn1CCn1cnnn1 | inactive: 0.12% |
| O=P(Nc1nccs1)(c1ccccc1)c1ccccc1 | inactive: -7.69% |
| CC(C)C(=O)NC(Sc1ccccc1)C(Cl)(Cl)Cl (centres undefined) | inactive: -1.71% |

| SMILES | inhibition |
| --- | --- |
| O=P(Nc1nc2ccccc2s1)(c1ccccc1)c1ccccc1 | inactive: 14.3% |
| CN(C)C1(CNC(=O)c2ccc(Cl)c(S(N)(=O)=O)c2)CCCCC1 | inactive: 1.09% |
| O=P(Nc1ccccn1)(c1ccc(Br)cc1)c1ccc(Br)cc1 | inactive: -1.57% |
| Nc1ccc([As](=O)(O)c2ccc([N+](=O)[O-])cc2)cc1 | inactive: -9.74% |
| C(Cc1nn[nH]n1)Cc1nn[nH]n1 | inactive: 5.68% |
| O=C(OC1CN2CCC1CC2)c1cccc(Cl)c1 (centres undefined) | inactive: -0.88% |
| O=[N+]([O-])c1ncn(CCn2cnc([N+](=O)[O-])n2)n1 | inactive: 2.8% |
| CC(=O)NC(SC(=S)N(C)C)C(Cl)(Cl)Cl (centres undefined) | inactive: 3.61% |
| O=[N+]([O-])c1ccc(O)c(/C=N/Nc2ccc([N+](=O)[O-])cc2[N+](=O)[O-])c1 | inactive: -2.01% |
| O=[As](O)(c1ccccc1)c1ccc(O)cc1 | inactive: -7.31% |
| O=C(Nc1cc([As](=O)(O)O)ccc1O)c1ccccc1 | active: 33.2% |
| O=[N+]([O-])c1cccc(NC2=NCC(CBr)S2)c1 (centres undefined) | inactive: 6.35% |
| O=C(O)CNc1ccc([As](=O)(O)O)cc1 | inactive: -3.15% |
| CC(C)(C)C(=O)NC(Sc1ccncn1)C(Cl)(Cl)Cl (centres undefined) | inactive: -7.31% |
| O=[N+]([O-])c1ncn(CCn2ncnc2[N+](=O)[O-])n1 | inactive: -2.62% |
| CC(=O)N1C2C3N(C(C)=O)C1C1N(C(C)=O)C(C(N1C(C)=O)N3C(C)=O)N2C(C)=O | inactive: -12.3% |
| O=[N+]([O-])c1cccc2n[nH]nc12 | inactive: 4.05% |
| Cc1ccc(NP(=O)(Oc2ccccc2)Oc2ccccc2)nc1 | inactive: -17.5% |
| O=[N+]([O-])c1cc([N+](=O)[O-])c(CCNc2ccccc2)c([N+](=O)[O-])c1 | inactive: 17.7% |
| CCc1nc2c(n1)c1c(non1O)c1c2no[n+]1[O-] | inactive: 9.23% |
| COc1ccc(C2=NCC(CBr)S2)cc1 (centres undefined) | inactive: -0.67% |
| CC(C)=N/N=C(\N)N[N+](=O)[O-] | active: 38% |

| SMILES | inhibition |
| --- | --- |
| CN(C)C(=O)OCCc1n(C)cc[n+]1C | inactive: -1.51% |
| CC1CCN(C(=O)Oc2c(Cl)cc(Cl)c3cccnc23)CC1 | inactive: 28% |
| Nc1ccc([As](=O)(O)c2ccc(N)cc2)cc1 | inactive: -1.14% |
| C[N+]1=C2C=CC=CC=C2SC12C([N+](=O)[O-])=CC([N+](=O)[O-])=C[C-]2[N+](=O)[O-] (centres undefined) | active: 31% |
| CCN(/C(=N/P(=O)(N1CCOCC1)N1CCOCC1)N1CCOCC1)c1ccc(OC)cc1 | inactive: -2.47% |
| COc1ccccc1OP(=O)(Nc1ccc(C)cn1)Oc1ccccc1OC | inactive: 6.25% |
| Cc1ccc(OP(=O)(Nc2nccs2)Oc2ccc(C)cc2)cc1 | inactive: -0.24% |
| Clc1ccc(Cl)c(NC2=NCC(CBr)S2)c1 (centres undefined) | inactive: 3.67% |
| CN1CCCC(OC(=O)C(c2ccccc2)c2ccccc2)C1 (centres undefined) | inactive: -1.51% |
| NC(=O)c1cc([N+](=O)[O-])cc([N+](=O)[O-])c1N | inactive: -14.4% |
| Cc1ccc(N/C(=N/P(=O)(N2CCOCC2)N2CCOCC2)N2CCOCC2)cc1 | inactive: -1.39% |
| CC(C)CC(=O)NC(Sc1ccc(Cl)cc1)C(Cl)(Cl)Cl (centres undefined) | inactive: -7.37% |
| Nc1cc(N)c2nonc2c1[N+](=O)[O-] | inactive: 5.62% |
| Oc1ccccc1CNc1ccccn1 | inactive: -3.13% |
| Cc1c2non([O-])c-2c(C)[n+](=O)[n+]1[O-] | active: 55.1% |
| O=C(NC(Sc1ccncn1)C(Cl)(Cl)Cl)c1ccccc1 (centres undefined) | inactive: 9.27% |
| CCOP(=O)(Nc1ccccc1)OCC | inactive: -0.56% and inactive: 0.11% |
| Cc1cc(SC(NC(=O)c2ccc(F)cc2)C(Cl)(Cl)Cl)ncn1 (centres undefined) | inactive: 16% |
| Cc1ccc(NP(=O)(Oc2ccccc2F)Oc2ccccc2F)nc1 | inactive: -2.53% |
| O=C(O)c1ccccc1[As](=O)(O)O | inactive: -4.21% |
